Measured values from several laboratories, pooled; numbers as filed in NIAID ChemDB.

Shared fields: tests in culture

MIC50, MIC90 and the like: level of inhibition, or share of isolates inhibited. ECn is the concentration giving n% inhibition of infection, replication or growth. Two numbers with a dash give a range or band. Conditions beyond the fields shown may differ between rows.

{"compound": "CC(=O)NC[C@H]1CN(c2ccc(-c3cncs3)c(F)c2)C(=O)O1", "organism": "Enterococcus faecalis", "strain or isolate": "UC9217", "endpoint": "MIC", "value": "0.5 µg/mL"}
{"compound": "Cc1cc(CCCCCOc2c(Cl)cc(C3=NCCO3)cc2Cl)on1", "organism": "Enterovirus", "strain or isolate": "OHIO-1 (CVB2)", "cells": "VERO", "read by": "plaque count", "endpoint": "EC50", "value": "0.018 µg/mL"}
{"compound": "Cc1cc(OCCCc2ccc(C=O)nn2)cc(C)c1-c1noc(C(F)F)n1", "organism": "Enterovirus", "cells": "HeLa", "read by": "cytopathic effect", "endpoint": "EC50", "value": "0.033–0.659 µg/mL"}
{"compound": "C[C@H]1COc2c(N3CCN(C)CC3)c(F)cc3c(=O)c(C(=O)O)cn1c23", "organism": "Enterococcus faecium", "endpoint": "MIC90", "value": "2–50 µg/mL"}
{"compound": "CCCc1ccc(CCCOc2ccc(-c3noc(C4CC4)n3)c(C)c2)nn1", "organism": "Enterovirus", "cells": "HeLa", "read by": "cytopathic effect", "endpoint": "EC50", "value": "0.033–0.659 µg/mL"}
{"compound": "CC(=O)NC[C@H]1CN(c2ccc(-c3cccs3)c(F)c2)C(=O)O1", "organism": "Enterococcus faecalis", "strain or isolate": "UC9217", "endpoint": "MIC", "value": "0.5 µg/mL"}
{"compound": "CCCc1nc(-c2c(C)cc(OCCCc3ccc(CO)nn3)cc2C)no1", "organism": "Enterovirus", "cells": "HeLa", "read by": "cytopathic effect", "endpoint": "EC50", "value": "0.033–0.659 µg/mL"}
{"compound": "O=C1N(CCCCCOc2ccc(-c3ccc(Cl)cc3)cc2)CCN1c1ccncc1", "organism": "Enterovirus", "strain or isolate": "Clinical isolate 71 (2231) genotype C", "cells": "RD", "read by": "cytopathic effect", "endpoint": "EC50", "value": "0.076 µM"}
{"compound": "Cc1c(NC(C)C)c(F)cc2c(=O)c(C(=O)O)cn(-c3cc(N)c(F)cc3F)c12", "organism": "Enterococcus faecium", "strain or isolate": "W1140", "endpoint": "MIC", "value": "4 µg/mL"}
{"compound": "CC(CCOc1ccc(-c2ccc(Cl)cc2)cc1)CCN1CCN(c2ccncc2)C1=O", "organism": "Enterovirus", "strain or isolate": "Clinical isolate 71 (4643) genotype C", "cells": "RD", "read by": "cytopathic effect", "endpoint": "EC50", "value": "0.0093 µM"}
{"compound": "CC(=O)NC[C@H]1CN(c2ccc(-c3csc(C)c3)c(F)c2)C(=O)O1", "organism": "Enterococcus faecalis", "strain or isolate": "UC9217", "endpoint": "MIC", "value": "2 µg/mL"}
{"compound": "CN(C)c1cc(NC(=O)CNC(C)(C)C)c(O)c2c1C[C@H]1C[C@H]3[C@H](N(C)C)C(=O)C(C(N)=O)=C(O)[C@@]3(O)C(=O)C1=C2O", "organism": "Enterococcus faecium", "strain or isolate": "20 strains (vancomycin-susceptible)", "endpoint": "MIC90", "value": "0.12 µg/mL"}
{"compound": "CCNc1c(F)cc2c(=O)c(C(=O)O)cn(-c3cc(N)c(F)cc3F)c2c1C", "organism": "Enterococcus faecium", "strain or isolate": "W1140", "endpoint": "MIC", "value": "2 µg/mL"}
{"compound": "CC(C)(CCOc1ccc(-c2ccc(Cl)cc2)cc1)CCN1CCN(c2ccncc2)C1=O", "organism": "Enterovirus", "strain or isolate": "Clinical isolate 71 (2231)", "cells": "RD", "read by": "cytopathic effect", "endpoint": "EC50", "value": "0.14 µM"}
{"compound": "COc1ccc(C/C=C/Oc2cc(C)c(-c3noc(C(F)F)n3)c(C)c2)nn1", "organism": "Enterovirus", "cells": "HeLa", "read by": "cytopathic effect", "endpoint": "EC50", "value": "0.033–0.659 µg/mL"}
{"compound": "Cc1c(NC2CC2)c(F)cc2c(=O)c(C(=O)O)cn(-c3cc(N)c(F)cc3F)c12", "organism": "Enterococcus faecium", "strain or isolate": "W1418", "endpoint": "MIC", "value": "16 µg/mL"}
{"compound": "CC(=O)c1ccc(CCCOc2cc(C)c(-c3noc(C(F)F)n3)c(C)c2)nn1", "organism": "Enterovirus", "cells": "HeLa", "read by": "cytopathic effect", "endpoint": "EC50", "value": "0.033–0.659 µg/mL"}
{"compound": "CC(=O)NC[C@H]1CN(c2ccc(-c3cc(C#N)cs3)c(F)c2)C(=O)O1", "organism": "Enterococcus faecalis", "strain or isolate": "UC9217", "endpoint": "MIC", "value": "≤0.5 µg/mL"}

For reference, 2 entries again:

Cc1c(NC(C)C)c(F)cc2c(=O)c(C(=O)O)cn(-c3cc(N)c(F)cc3F)c12 ; organism: Enterococcus faecium ; strain or isolate: W1140 ; endpoint: MIC ; value: 4 µg/mL
CC(=O)NC[C@H]1CN(c2ccc(-c3cc(C#N)cs3)c(F)c2)C(=O)O1 ; organism: Enterococcus faecalis ; strain or isolate: UC9217 ; endpoint: MIC ; value: ≤0.5 µg/mL